# Source: PubChem BioAssay AID745 (Emory University Molecular Libraries Screening Center, 2007)
# The entries are a selection whose mix differs from that of the whole data set. Activity calls are given as the source filed them. Rule as the data show it: active = z-score below about -3; inactive = the rest.
# Test: inhibitors of measles virus growth in cells, primary screen, measles RdRp inhibitor project, cell-based, single point, HTS (AID 745)
# Conditions: infected Vero cells, GFP fluorescence, 64 h; stronger effect = lower value
row,Structure (SMILES),z-score
1,CCCOc1ccc(NP(C)(=O)Oc2ccc(Cl)cc2)cc1 (stereo unspecified),inactive: -0.61
2,COc1cccc(OP(=O)(Nc2ccccn2)Oc2cccc(OC)c2)c1,inactive: -0.43
3,Cc1cc(C)cc(OP(C)(=O)Nc2ccccn2)c1 (stereo unspecified),inactive: -0.38
4,COP(=O)(OC)C(NC(=O)c1ccc(C)cc1)=C(Cl)Cl,inactive: -0.05
5,O=C(COc1ccc(F)cc1)OC1CN2CCC1CC2 (stereo unspecified),inactive: 0.84
6,CP(=O)(Nc1ccc(Cl)cc1)Oc1ccc(F)cc1 (stereo unspecified),inactive: -0.26
7,Cn1cc([N+](=O)[O-])nc1[N+](=O)[O-],inactive: -0.34
8,CCOP(=S)(NCC(C)C)OCC,inactive: -0.21
9,CC(CNC(=O)C(C)([N+](=O)[O-])[N+](=O)[O-])([N+](=O)[O-])[N+](=O)[O-],inactive: -0.65
10,COc1ccccc1OP(=O)(Nc1ccccn1)Oc1ccccc1OC,inactive: -0.37
11,Cc1cc(C)cc(OP(C)(=O)Nc2cccc(Cl)c2C)c1 (stereo unspecified),inactive: -0.58
